Measured values from several laboratories, pooled; numbers as filed in NIAID ChemDB.

All rows: tests in culture; agent: Aspergillus fumigatus; read-out: zone

Lines come from different laboratories, so protocols vary. Zone: diameter of growth inhibition. An empty or dashed field is not shown.

compound | strain | method | tested at | result
N#Cc1ccc(Nc2nc(Oc3cccc4cccnc34)nc(N3CCN(c4cccc(Cl)c4Cl)CC3)n2)cc1C(F)(F)F | MTCC 343 | agar diffusion / agar | 100 µg/disc | 25 mm
N#Cc1ccc(Nc2nc(Oc3ccnc4ccccc34)nc(N3CCN(Cc4ccccc4)CC3)n2)cc1C(F)(F)F | MTCC 343 | agar | 100 µg/mL | <10 mm
CC(=O)Nc1ccc(F)cc1Sc1ncccc1[N+](=O)[O-] | MTCC 343 | - | 100 µg/mL | 16 mm
COC(=O)N[C@H](C(=O)NN(CC[C@@]1(Cc2ccccc2)C(=O)N(C2c3ccccc3C[C@H]2O)C[C@@H]1O)Cc1ccc(-c2cccnc2)cc1)C(C)(C)C | RCMB 002003 | agar diffusion / agar | 10 mg/mL | 18.8 mm
C[C@H]1[C@H](O)[C@@H](C)/C=C/C=C/C=C/C=C/C=C/C=C/C=C/[C@H](O[C@@H]2O[C@H](C)[C@@H](O)[C@H](N)[C@@H]2O)C[C@@H]2O[C@](O)(C[C@@H](O)C[C@@H](O)CC[C@H](O)[C@@H](O)C[C@@H](O)CC(=O)O[C@H]1C)C[C@H](O)[C@H]2C(=O)O | - | agar diffusion | 10 mg/disc | 0 mm
O=C(c1cn2cnnc2nn1)c1nn(-c2ccccc2)cc1-c1ccc([N+](=O)[O-])cc1 | - | agar diffusion / agar | 1.25 mg/mL | 2 mm
Cc1ccc2c(c1)C1(C(=O)N2CCCCCCN2C(=O)C3(SCC(=O)N3c3c(C)n(C)n(-c4ccccc4)c3=O)c3ccccc32)c2c(C)nn(-c3ccccc3)c2Oc2c1c(C)nn2-c1ccccc1 | MTCC 343 | agar diffusion | 100 µg/mL | 0 mm
COC(=O)N[C@H](C(=O)NN(CC[C@@]1(Cc2ccccc2)C(=O)N(C2c3ccccc3C[C@H]2O)C[C@H]1O)Cc1ccc(-c2ccncc2)cc1)C(C)(C)C | RCMB 002003 | agar diffusion / agar | 10 mg/mL | 18.8 mm
N#Cc1ccc(Nc2nc(Oc3cccc4cccnc34)nc(N3CCN(c4ncccn4)CC3)n2)cc1C(F)(F)F | MTCC 343 | agar diffusion / agar | 100 µg/disc | 25 mm
Cc1ccc2c(c1)C1(SCC(=O)N1c1c(C)n(C)n(-c3ccccc3)c1=O)C(=O)N2CCCCCCN1C(=O)C2(c3cc(F)ccc31)c1c(C)nn(-c3ccccc3)c1Oc1c2c(C)nn1-c1ccccc1 | MTCC 343 | agar diffusion | 100 µg/mL | 13 mm
COc1ccc(Cc2ccc(OC)c(-c3nnc4sc(Cc5ccc(Cl)cc5)nn34)c2)cc1-c1nnc2sc(Cc3ccc(Cl)cc3)nn12 | HIC 6094 | - | 100 µg/disc | 12 mm
CCC(C)CCCCCCCCCCC(=O)N[C@H]1C[C@@H](O)[C@@H](SCC(=O)OC)NC(=O)C2[C@@H](O)[C@@H](C)CN2C(=O)C(CO)NC(=O)C([C@H](O)C(O)c2ccc(O)cc2)NC(=O)NC(=O)[C@@H]2C[C@@H](O)CN2C(=O)[C@H]([C@@H](C)O)NC1=O | AF-1 | agar | 1 mg/mL | 20 mm
Cc1ccc2c(c1)C1(C(=O)N2CCCCCCN2C(=O)C3(SCC(=O)N3c3c(C)n(C)n(-c4ccccc4)c3=O)c3cc(C)ccc32)c2c(C)nn(-c3ccccc3)c2Oc2c1c(C)nn2-c1ccccc1 | MTCC 343 | agar diffusion | 100 µg/mL | 14 mm
CCOC(=O)C1=NN(c2ccccc2)C2=Nc3nccc(-c4nn(-c5ccccc5)cc4-c4ccc([N+](=O)[O-])cc4)c3C(=O)C12 | - | agar diffusion / agar | 1.25 mg/mL | 9 mm
COc1ccc(NC(=O)c2ccccc2N)cc1 | RCMB 02003 | agar diffusion | 25 µg/mL | 15.8 mm
CCC(C)CCCCCCCCCCC(=O)N[C@H]1C[C@@H](O)[C@@H](O)NC(=O)C2[C@@H](O)[C@@H](C)CN2C(=O)C(CO)NC(=O)C([C@H](O)C(O)c2ccc(O)cc2)NC(=O)NC(=O)[C@@H]2C[C@@H](O)CN2C(=O)[C@H]([C@@H](C)O)NC1=O | AF-1 | agar | 1 mg/mL | 29 mm
Cc1ccc2c(c1)C1(C(=O)N2CCCCCCN2C(=O)C3(SCC(=O)N3c3c(C)n(C)n(-c4ccccc4)c3=O)c3cc(F)ccc32)c2c(C)nn(-c3ccccc3)c2Oc2c1c(C)nn2-c1ccccc1 | MTCC 343 | agar diffusion | 100 µg/mL | 12 mm
N#Cc1ccc(Nc2nc(Oc3ccnc4ccccc34)nc(N3CCC(Cc4ccccc4)CC3)n2)cc1C(F)(F)F | MTCC 343 | agar | 100 µg/mL | <10 mm
CC(=O)C1=NN(c2ccccc2)C2=Nc3nccc(-c4nn(-c5ccccc5)cc4-c4ccc([N+](=O)[O-])cc4)c3C(=O)C12 | - | agar diffusion / agar | 5 mg/mL | 20 mm
CCC(C)CCCCCCCCCCC(=O)N[C@H]1C[C@@H](O)[C@@H](OC)NC(=O)C2[C@@H](O)[C@@H](C)CN2C(=O)C(CO)NC(=O)C([C@H](O)C(O)c2ccc(O)cc2)NC(=O)NC(=O)[C@@H]2C[C@@H](O)CN2C(=O)[C@H]([C@@H](C)O)NC1=O | AF-1 | agar | 5 mg/mL | 35 mm
N#Cc1ccc(Nc2nc(Oc3cccc4cccnc34)nc(N3CCN(c4ccccc4)CC3)n2)cc1C(F)(F)F | MTCC 343 | agar diffusion / agar | 100 µg/disc | 18 mm
Cc1ccc(NC(=O)c2ccccc2N)cc1 | RCMB 02003 | agar diffusion | 25 µg/mL | 7.2 mm
C[C@@H]1[C@H](O)[C@@H](C)/C=C/C=C/C=C/C=C/C=C/C=C/C=C/[C@H](O[C@@H]2O[C@H](C)[C@@H](O)[C@H](N)[C@@H]2O)C[C@@H]2O[C@](O)(C[C@@H](O)C[C@@H](O)[C@H](O)CC[C@@H](O)C[C@@H](O)CC(=O)O[C@H]1C)C[C@H](O)[C@H]2C(=O)O | HIC 6094 | - | 100 µg/disc | 30 mm
COC(=O)N[C@H](C(=O)NN(CC[C@@]1(Cc2ccccc2)C(=O)N(C2c3ccccc3C[C@H]2O)C[C@@H]1O)Cc1ccc(-c2ccncc2)cc1)C(C)(C)C | RCMB 002003 | agar diffusion / agar | 10 mg/mL | 18.8 mm
CC(=O)c1ccc(-c2nn(-c3ccc(C)cc3)cc2-c2ccc([N+](=O)[O-])cc2)nc1C | - | agar diffusion / agar | 1.25 mg/mL | 0 mm
COc1ccc(Cc2ccc(OC)c(-c3nnc4sc(-c5cccc([N+](=O)[O-])c5)nn34)c2)cc1-c1nnc2sc(-c3cccc([N+](=O)[O-])c3)nn12 | HIC 6094 | - | 100 µg/disc | 16 mm
CCC(C)CCCCCCCCCCC(=O)N[C@H]1C[C@@H](O)[C@@H](N=[N+]=[N-])NC(=O)C2[C@@H](O)[C@@H](C)CN2C(=O)C(CO)NC(=O)C([C@H](O)C(N=[N+]=[N-])c2ccc(O)cc2)NC(=O)NC(=O)[C@@H]2C[C@@H](O)CN2C(=O)[C@H]([C@@H](C)O)NC1=O | AF-1 | agar | 2 mg/mL | 19 mm
N#Cc1ccc(Nc2nc(Oc3ccnc4ccccc34)nc(N3CCCCC3)n2)cc1C(F)(F)F | MTCC 343 | agar | 100 µg/mL | <10 mm
COC(=O)N[C@H](C(=O)NN(CC[C@@]1(Cc2ccccc2)C(=O)N(C2c3ccccc3C[C@H]2O)C[C@@H]1O)Cc1ccc(-c2ccccn2)cc1)C(C)(C)C | RCMB 002003 | agar diffusion / agar | 10 mg/mL | 18.8 mm
CCC(C)CCCCCCCCCCC(=O)N[C@H]1C[C@@H](O)[C@@H](S(=O)(=O)CC(=O)OC)NC(=O)C2[C@@H](O)[C@@H](C)CN2C(=O)C(CO)NC(=O)C([C@H](O)C(O)c2ccc(O)cc2)NC(=O)NC(=O)[C@@H]2C[C@@H](O)CN2C(=O)[C@H]([C@@H](C)O)NC1=O | AF-1 | agar | 1 mg/mL | 20 mm
c1ccc2c(c1)Sc1cccnc1N2CCCCCCN1c2ccccc2Sc2cccnc21 | MTCC 343 | - | 100 µg/mL | 10 mm
CCC(C)CCCCCCCCCCC(=O)N[C@H]1C[C@@H](O)[C@@H](Sc2ccccc2)NC(=O)C2[C@@H](O)[C@@H](C)CN2C(=O)C(CO)NC(=O)C([C@H](O)C(Sc2ccccc2)c2ccc(O)cc2)NC(=O)NC(=O)[C@@H]2C[C@@H](O)CN2C(=O)[C@H]([C@@H](C)O)NC1=O | AF-1 | agar | 2 mg/mL | 15 mm
COc1ccc(Cc2ccc(OC)c(-c3nnc4sc(-c5cnccn5)nn34)c2)cc1-c1nnc2sc(-c3cnccn3)nn12 | HIC 6094 | - | 100 µg/disc | 22 mm
Nc1ccccc1C(=O)Nc1ccc(F)cc1 | RCMB 02003 | agar diffusion | 25 µg/mL | 11.8 mm
COc1ccc(Cc2ccc(OC)c(-c3nnc4sc(-c5ccc(O)cc5)nn34)c2)cc1-c1nnc2sc(-c3ccc(O)cc3)nn12 | HIC 6094 | - | 100 µg/disc | 18 mm
C[C@@H]1[C@H](O)[C@@H](C)/C=C/C=C/C=C/C=C/C=C/C=C/C=C/[C@H](O[C@@H]2O[C@H](C)[C@@H](O)[C@H](N)[C@@H]2O)C[C@@H]2O[C@](O)(C[C@@H](O)C[C@@H](O)[C@H](O)CC[C@@H](O)C[C@@H](O)CC(=O)O[C@H]1C)C[C@H](O)[C@H]2C(=O)O | - | agar diffusion / agar | 30 µg/disc | 23 mm

5 of the rows above, restated:

compound,strain,method,tested at,result
Cc1ccc(NC(=O)c2ccccc2N)cc1,RCMB 02003,agar diffusion,25 µg/mL,7.2 mm
CCC(C)CCCCCCCCCCC(=O)N[C@H]1C[C@@H](O)[C@@H](N=[N+]=[N-])NC(=O)C2[C@@H](O)[C@@H](C)CN2C(=O)C(CO)NC(=O)C([C@H](O)C(N=[N+]=[N-])c2ccc(O)cc2)NC(=O)NC(=O)[C@@H]2C[C@@H](O)CN2C(=O)[C@H]([C@@H](C)O)NC1=O,AF-1,agar,2 mg/mL,19 mm
Nc1ccccc1C(=O)Nc1ccc(F)cc1,RCMB 02003,agar diffusion,25 µg/mL,11.8 mm
Cc1ccc2c(c1)C1(C(=O)N2CCCCCCN2C(=O)C3(SCC(=O)N3c3c(C)n(C)n(-c4ccccc4)c3=O)c3cc(C)ccc32)c2c(C)nn(-c3ccccc3)c2Oc2c1c(C)nn2-c1ccccc1,MTCC 343,agar diffusion,100 µg/mL,14 mm
N#Cc1ccc(Nc2nc(Oc3ccnc4ccccc34)nc(N3CCCCC3)n2)cc1C(F)(F)F,MTCC 343,agar,100 µg/mL,<10 mm